This note sets out measurements from patent US20030199438A1, “Method for identification of proteins from intracellular bacteria” (priority 2001, published 2003).

The test system of the data set is C. trachomatis D infected cell cultures. Description: Pulse chase studies of candidates for secreted proteins (2D-PAGE). Conditions: labelled 22-24 h.p.i.; for spot intensity at 4.5 hours and until the EB stage: chase 4.5 hours. In kind it is cell-based. As to the method:
To label chlamydial proteins for two hour periods, infected cell cultures were incubated in a medium containing RPMI 1640, […] gentamycin, 40 μg/ml cycloheximide, 100 μCi/ml [35S]-methionine/cysteine (Promix, Amersham Pharmacia Biotech, Uppsala, Sweden) as described previously (Shaw et al., 1999,2000) [18.] [19.]. After labelling the labelling medium was changed to normal growth medium following two washes in normal growth medium and the infected cells were harvested at different points in time after labelling. Similarly, labelled EB proteins were obtained by allowing the Chlamydia to grow until 72 h.p.i. after the two hour labelling periods. The labelled EB were then harvested and purified using two consecutive steps of density gradient ultracentrifugation essentially as described for C. trachomatis in (Schacter and Wyrick, 1994) [22.]and for C. pneumoniae (Knudsen et al. 1999 [17.]). Proteins in the EB preparation and pulse chase preparation were labelled at the same intervals as proteins from the whole cell lysate preparation to facilitate correct 2D-PAGE protein profile comparison.
In order to estimate the time in which the identified candidate proteins could be present inside infected cells, the invention provides a series of pulse chase studies. In the following examples infected cell cultures were [35S]-labelled from 22-24 hours. After the labelling period the medium was changed to normal RPMI growth medium without [35S]-methionine and cells were harvested at different times after labelling.

B1: CT610: C. trachomatis protein, isoforms DT7, DT9, DT10, DT11, DT12 (protein)
chain: MNFLDQLDLIIQNKHMLEHTFYVKWSKGELTKEQLQAYAKDYYLHIKAFPKYLSAIHSRCDDLEARKLLLDNLMDEENGYPNHIDLWKQFVFALGVTPEELEAHEPSEAAKAKVATFMRWCTGDSLAAGVAALYSYESQIPRIAREKIRGLTEYFGFSNPEDYAYFTEHEEADVRHAREEKALIEMLLKDDADKVLEASQEVTQSLYGFLDSFLDPGTCCSCHQSY
Consider B1, for which the “spot intensity at 4.5 hours and until the EB stage” value is “still detectable”.

B2: DT8: novel 7.2 kDa C. trachomatis specific protein, SEQ ID NO:1, not annotated in genome (protein, listed as Chlamydia trachomatis)
chain: MQHTIMLSLENDNDKLASMMDRVVAASSSILSASKDSESNRQFTISKAPDKEAPCRVSYVAASALSE
B2: the “spot intensity at 4.5 hours and until the EB stage” value is “virtually absent”. The “spot intensity 1.5 hours after synthesis” value (chase 1.5 hours) was “significantly decreased”.

B3: CT858: C. trachomatis 67 kDa protein, fragments DT4 (C-terminal) and DT48 (N-terminal) (protein)
chain: MKMNRIWLLLLTFSSAIHSPVQGESLVCKNALQDLSFLEHLLQVKYAPKTWKEQYLGWDLVQSSVSAQQKLRTQENPSTSFCQQVLADFIGGLNDFHAGVTFFAIESAYLPYTVQKSSDGRFYFVDIMTFSSEIRVGDELLEVDGAPVQDVLATLYGSNHKGTAAEESAALRTLFSRMASLGHKVPSGRTTLKIRRPFGTTREVRVKWRYVPEGVGDLATIAPSIRAPQLQKSMRSFFPKKDDAFHRSSSLFYSPMVPHFWAELRNHYATSGLKSGYNIGSTDGFLPVIGPVIWESEGLFRAYISSVTDGDGKSHKVGFLRIPTYSWQDMEDFDPSGPPPWEEFAKIIQVFSSNTEALIIDQTNNPGGSVLYLYALLSMLTDRPLELPKHRMILTQDEVVDALDWLTLLENVDTNVESRLALGDNMEGYTVDLQVAEYLKSFGRQVLNCWSKGDIELSTPIPLFGFEKIHPHPRVQYSKPICVLINEQDFSCADFFPVVLKDNDRALIVGTRTAGAGGFVFNVQFPNRTGIKTCSLTGSLAVREHGAFIENIGVEPHIDLPFTANDIRYKGYSEYLDKVKKLVCQLINNDGTIILAEDGSF
With B3, the “spot intensity during the first chase periods” value is recorded as “gradually increased”.
